Assay [1] in a line: Selectivity index, ratio of CC50 for human HeLa cells to MIC for Bacillus anthracis. In kind it is functional.
The nature of assay [2]: Selectivity index, ratio of CC50 for human HeLa cells to MIC for Staphylococcus aureus ATCC 25923. In kind it is functional.

Turning to `Cc1c(CCC(=O)O)c(=O)oc2c(C)c(OCc3ccc(-c4ccc(Cl)cc4)cc3)ccc12`, the Selectivity Index is 40 in assay [1] and 20 in assay [2].
As for `Cc1c(CCC(=O)O)c(=O)oc2c(C)c(OCc3ccc(-c4ccccc4)cc3)ccc12`, the figures for the Selectivity Index in assay [1] and in assay [2] were 66 and 33, respectively.

(Values after ChEMBL document CHEMBL2177067 (J Med Chem, 2012).)
